Data source: PubChem BioAssay AID624099 (ICCB-Longwood, 2012)
Screen: 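Host factors E2 relies on to silence an HPV18 LCR reporter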 (primary screen). System: human C33A cervical carcinoma cells (HPV-negative) stably expressing BPV1 E2 and an HPV18 LCR luciferase reporter. Reagent: siRNA pool against human genes, 40 nM. Duration: 72 h. Read-out: 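HPV18 LCR reporter light per well, converted to plate-wise z-scores that exclude control wells, and averaged over triplicate plates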. Scale: mean z-score and z-score: higher = stronger reporter signal, weaker E2 silencing. Active means: 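Mean z ≥ 2 together with z ≥ 2 in two or more of the three replicates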.
In all, the deposit lists about 21,000 reagents; this is a part drawn at random. 497 of them (2.4%) count as active. 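Higher z means weaker E2 silencing; only reporter increases were scored, and knock-downs that hurt cell survival may mask genuine repressor factors.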 No sequences are given here.

| gene symbol | PubChem SID | mean z-score | z-score, replicate A | z-score, replicate B | z-score, replicate C | Outcome |
| --- | --- | --- | --- | --- | --- | --- |
| NELFB | SID134319859 | 0.86 | 0.88 | 0.97 | 0.72 | inactive |
| TMA16 | SID134324835 | 2.67 | 2.55 | 2.83 | 2.65 | active |
| CHIC2 | SID134322881 | -0.04 | 0.14 | -0.22 | -0.05 | inactive |
| NWD1 | SID134328993 | -0.13 | 0 | 0.08 | -0.48 | inactive |
| LHX4 | SID134315089 | 0.68 | 0.46 | 0.71 | 0.88 | inactive |
| NFIA | SID134313520 | -0.05 | 0.07 | 0.04 | -0.27 | inactive |
| NIBAN1 | SID134318124 | 0.68 | 0.91 | 0.59 | 0.56 | inactive |
| TUBAL3 | SID134313848 | -0.56 | -0.23 | -0.62 | -0.84 | inactive |
| HSD17B14 | SID134314216 | 2.94 | 3.05 | 2.99 | 2.78 | active |
| ZNF273 | SID134319169 | 0.84 | 0.25 | 1.02 | 1.26 | inactive |
| ZNF273 | SID134329483 | 0.95 | 1.09 | 0.82 | 0.94 | inactive |
| ITLN1 | SID134313872 | 1.15 | 1.35 | 1.35 | 0.75 | inactive |
| VPS37C | SID134322082 | -0.45 | -0.44 | -0.65 | -0.26 | inactive |
| FPR1 | SID134310007 | 0.13 | -0.05 | 0.3 | 0.15 | inactive |
| GTSE1 | SID134310854 | 1 | 0.81 | 1 | 1.19 | inactive |
| DAZ3 | SID134324659 | 0.3 | 0.42 | 0.36 | 0.11 | inactive |
| BRAF | SID56478653 | -0.78 | -0.72 | -0.53 | -1.08 | inactive |
| C1QL3 | SID134328201 | -0.51 | -1.1 | -0.46 | 0.05 | inactive |
| SURF2 | SID134321404 | -0.2 | -0.09 | -0.18 | -0.32 | inactive |
| INTS12 | SID134319656 | 1.07 | 0.65 | 1.21 | 1.34 | inactive |
| DAAM1 | SID134317175 | 1.11 | 0.75 | 1.23 | 1.36 | inactive |
| CDH17 | SID134316146 | 0.64 | 0.65 | 0.55 | 0.72 | inactive |
| ABLIM3 | SID134324093 | 0.75 | 1.02 | 0.57 | 0.66 | inactive |
| TULP2 | SID134315755 | -0.75 | -0.24 | -0.87 | -1.15 | inactive |
| ZFP14 | SID134328900 | 0.64 | 0.93 | 0.81 | 0.19 | inactive |
| USP28 | SID134311497 | 0.56 | 0.42 | 0.59 | 0.65 | inactive |
| ZBTB45 | SID134320678 | 0.35 | 0.62 | 0.01 | 0.41 | inactive |
| IL10 | SID134310725 | 0.11 | -0.02 | 0.21 | 0.14 | inactive |
| RBM41 | SID134324608 | -0.85 | -0.87 | -0.79 | -0.89 | inactive |
| OR51F2 | SID134326657 | -0.07 | 0.11 | 0 | -0.31 | inactive |
| RPL18AP4 | SID134325206 | 0.33 | 0.43 | -0.05 | 0.6 | inactive |
| LOC388949 (retired record) | SID134327169 | 0.51 | 0.94 | 0.2 | 0.4 | inactive |

Already shown: 5 of the entries above.
| gene symbol | PubChem SID | mean z-score | z-score, replicate A | z-score, replicate B | z-score, replicate C | Outcome |
| --- | --- | --- | --- | --- | --- | --- |
| IL10 | SID134310725 | 0.11 | -0.02 | 0.21 | 0.14 | inactive |
| RBM41 | SID134324608 | -0.85 | -0.87 | -0.79 | -0.89 | inactive |
| OR51F2 | SID134326657 | -0.07 | 0.11 | 0 | -0.31 | inactive |
| RPL18AP4 | SID134325206 | 0.33 | 0.43 | -0.05 | 0.6 | inactive |
| LOC388949 (retired record) | SID134327169 | 0.51 | 0.94 | 0.2 | 0.4 | inactive |

More results follow.
| gene symbol | PubChem SID | mean z-score | z-score, replicate A | z-score, replicate B | z-score, replicate C | Outcome |
| --- | --- | --- | --- | --- | --- | --- |
| RPS6KB2 | SID56478841 | -0.29 | -0.18 | -0.36 | -0.33 | inactive |
| FEM1C | SID134322939 | -0.9 | -0.98 | -0.83 | -0.89 | inactive |
| DMTF1 | SID134310116 | -0.5 | -0.17 | -0.65 | -0.68 | inactive |
| OR2T3 | SID134329936 | -0.24 | -0.63 | -0.2 | 0.12 | inactive |
| LINC00868 | SID134325552 | 1.31 | 0.8 | 1.71 | 1.42 | inactive |
| ZNF260 | SID134325862 | -0.47 | -0.62 | -0.22 | -0.57 | inactive |
| C3orf85 | SID134327354 | 0.02 | 0.21 | -0.39 | 0.23 | inactive |
| LOC401038 (retired record) | SID134327239 | -1.65 | -1.79 | -1.31 | -1.86 | inactive |
| LOC390020 (retired record) | SID134328203 | -0.42 | -0.57 | -0.22 | -0.48 | inactive |
| RIDA | SID134323796 | 1.15 | 1.5 | 1.18 | 0.78 | inactive |
| BPGM | SID134313758 | 1.71 | 1.86 | 1.55 | 1.71 | inactive |
| SNX18 | SID134317663 | -0.16 | -0.29 | -0.14 | -0.04 | inactive |
| TFF2 | SID134315043 | 0.26 | 0.14 | 0.32 | 0.34 | inactive |
| DSG2 | SID134315970 | -1.25 | -1.23 | -1.43 | -1.07 | inactive |
| TMED2 | SID134313004 | -0.06 | -0.01 | -0.18 | 0.03 | inactive |
| MAML1 | SID134317642 | -0.59 | -0.31 | -0.73 | -0.71 | inactive |
| IL37 | SID134312892 | -0.11 | 0.15 | -0.23 | -0.24 | inactive |
| OR2C3 | SID134325007 | -0.57 | -0.63 | -0.59 | -0.48 | inactive |
| HES6 | SID134313282 | -2.17 | -2.19 | -2.15 | -2.17 | inactive |
| NOD1 | SID134310435 | 0.06 | 0.29 | 0.18 | -0.29 | inactive |
| KRTAP1-5 | SID134317737 | -0.87 | -0.85 | -1.06 | -0.71 | inactive |
| SNRNP200 | SID134318337 | 0.28 | 0.62 | -0.13 | 0.37 | inactive |
| TTC23L | SID134321016 | -0.74 | -0.48 | -0.86 | -0.89 | inactive |
| PRAMEF15 | SID134325307 | -0.63 | -0.43 | -0.97 | -0.5 | inactive |
| OR4X1 | SID134328336 | -0.36 | -0.31 | -0.18 | -0.58 | inactive |
